Reference: patent EP4670733A1, “METHODS FOR PREPARING VIRAL PROTEINS AND USES THEREOF” (priority 2024, dated 2025)

Test system: B/Phuket/3073/2013 virus strain
Test: Morphological characterization by TEM
Parameters: species or system influenza virus

Substance: C11-15-secondary alcohol ethoxylates
- Morphological characterization (TEM): Splitting observed

Substance: Triton X-100 [reference compound]
- Morphological characterization (TEM): Splitting observed
